For 1 compound, IC50 results are on record in article PMC4491176, “Caenorhabditis elegans is a useful model for anthelmintic discovery” (Nature Communications, 2015).

By UniProt entry, the sequences of proteins in these tests, tags left out. Where a name states a change or a piece, a line headed by the entry shows the natural chain unless it says otherwise. Residues count along the entry.
UniProt O62215: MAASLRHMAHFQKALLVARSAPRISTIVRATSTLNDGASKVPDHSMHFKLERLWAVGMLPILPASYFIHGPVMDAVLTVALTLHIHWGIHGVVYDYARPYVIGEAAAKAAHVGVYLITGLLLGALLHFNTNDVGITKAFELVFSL
UniProt P41956: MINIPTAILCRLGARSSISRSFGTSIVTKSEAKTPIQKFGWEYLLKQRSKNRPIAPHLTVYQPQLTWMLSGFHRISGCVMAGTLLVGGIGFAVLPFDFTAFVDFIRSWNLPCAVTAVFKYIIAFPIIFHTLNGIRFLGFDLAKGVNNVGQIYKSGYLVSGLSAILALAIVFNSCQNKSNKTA
UniProt Q09508, 32-646 limits assumed: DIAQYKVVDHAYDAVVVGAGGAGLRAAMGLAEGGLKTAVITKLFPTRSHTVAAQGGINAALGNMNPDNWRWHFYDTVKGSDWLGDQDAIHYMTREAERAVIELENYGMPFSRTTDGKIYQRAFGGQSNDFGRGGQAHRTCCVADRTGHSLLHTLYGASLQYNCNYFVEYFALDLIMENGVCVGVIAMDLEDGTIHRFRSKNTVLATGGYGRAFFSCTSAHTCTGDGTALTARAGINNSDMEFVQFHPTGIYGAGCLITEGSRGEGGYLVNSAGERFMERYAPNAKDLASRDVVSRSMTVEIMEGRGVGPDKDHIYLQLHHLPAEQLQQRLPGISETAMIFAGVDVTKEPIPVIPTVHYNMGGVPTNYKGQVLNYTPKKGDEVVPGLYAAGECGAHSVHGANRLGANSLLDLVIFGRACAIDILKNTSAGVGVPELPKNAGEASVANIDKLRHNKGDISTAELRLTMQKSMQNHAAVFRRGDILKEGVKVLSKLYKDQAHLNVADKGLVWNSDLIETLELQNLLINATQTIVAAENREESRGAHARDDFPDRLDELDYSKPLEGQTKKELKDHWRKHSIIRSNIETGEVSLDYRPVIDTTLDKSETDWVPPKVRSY
UniProt Q09545: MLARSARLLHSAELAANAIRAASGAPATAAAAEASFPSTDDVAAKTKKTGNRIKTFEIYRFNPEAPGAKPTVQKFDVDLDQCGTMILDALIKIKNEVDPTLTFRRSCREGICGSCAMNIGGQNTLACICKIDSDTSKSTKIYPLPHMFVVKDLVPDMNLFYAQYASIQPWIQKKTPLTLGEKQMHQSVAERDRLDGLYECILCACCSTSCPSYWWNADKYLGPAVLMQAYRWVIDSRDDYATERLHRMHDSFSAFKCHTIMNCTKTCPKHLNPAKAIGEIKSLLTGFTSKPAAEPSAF

Usually IC50 stands for the point on the concentration scale where inhibition reaches its midpoint.

The assay addresses wild-type C. elegans complex II (Caenorhabditis elegans, UniProt O62215+P41956+Q09508+Q09545). Kind of assay: Cell-free Complex II functional assay, mitochondria from wild-type (N2) worms. It counts as biochemical. The conditions noted are these: read-out: In vitro Complex II IC50, strain N2, SDHC residue change none.

As for `COc1[nH]c(=O)c(C(=O)[C@@H](C)C[C@H](C)[C@@H](Cl)CCl)c(O)c1OC` [Atpenin A5], the IC50 was 1.68 µM.
